Measurements published in US11007274B2, “Compounds for medicinal applications” (Ausvir Therapeutics Pty LTD, priority 2015, dated 2021).
Values after ≈ are worked out from the molar mass of the structure shown. Values joined by “and” are separate entries in the source; they are usually repeats but may differ in a detail not shown here. Equal values may be shown once. Read-outs that look alike come from different tables or passages of the source.

How the values were obtained:
Duck/MN/1525/81 = assay type: cell-based; conditions: Table 7
[1] = system: influenza A/PR/8 (H1N1) virus (500 pfu/mouse); conditions: in vivo
A/Mississippi/03/01 WT = experiment: microbe, parasite or virus in culture; assay type: cell-based; conditions: unidentified influenza virus, read-out: EC50 A/Mississippi/03/01 WT
A/Duck/MN/1525/81 (H5N1) = conditions: mouse, in vivo
A/Townsville/74/2011 = experiment: microbe, parasite or virus in culture; assay type: cell-based; conditions: unidentified influenza virus; Table 8; means of at least three determinations
B/Townsville/2/2011 = experiment: microbe, parasite or virus in culture; assay type: cell-based; conditions: unidentified influenza virus; Table 8; means of at least three determinations
[2] = system: influenza A/PR/8 (H1N1) virus (500 pfu/mouse); conditions: in vivo; remark: listed apart in the source
A/Perth/261/2009 = experiment: microbe, parasite or virus in culture; assay type: cell-based; conditions: unidentified influenza virus; Table 8; means of at least three determinations
A/Solomon Island/3/06 = experiment: microbe, parasite or virus in culture; assay type: cell-based; conditions: unidentified influenza virus; Table 8; means of at least three determinations
A/Victoria/170/2012 = experiment: microbe, parasite or virus in culture; assay type: cell-based; conditions: unidentified influenza virus; Table 8; means of at least three determinations
A/Sydney/5/97 = experiment: microbe, parasite or virus in culture; assay type: cell-based; conditions: unidentified influenza virus; Table 8; means of at least three determinations
B/Sichuan/379/99 (FluB) = conditions: mouse, in vivo
[3] = system: A/California/04/2009 (H1N1); conditions: mouse, in vivo
A/Victoria/503/06 = experiment: microbe, parasite or virus in culture; assay type: cell-based; conditions: unidentified influenza virus; Table 8; means of at least three determinations
A/Sydney/250/99 = experiment: microbe, parasite or virus in culture; assay type: cell-based; conditions: unidentified influenza virus; Table 8; means of at least three determinations

CC(=O)N[C@H]1[C@H]([C@H](OC(=O)NCCCCCNC(=O)[C@@H]2C[C@H](C(=O)NCCCCCNC(=O)O[C@@H]([C@@H]3OC(C(=O)O)=C[C@H](N=C(N)N)[C@H]3NC(C)=O)[C@H](O)CO)C[C@H](C(=O)N[C@@H](CC(=O)O)C(=O)O)C2)[C@H](O)CO)OC(C(=O)O)=C[C@@H]1N=C(N)N [MD242, CHTCA(Zp)2-L-Asp]
EC50 Duck/MN/1525/81 (Duck/MN/1525/81): 0.84 ng/mL (≈ 0.691 nM)

CC(=O)N[C@H]1[C@H]([C@H](OC(=O)NCCCCCCCCNC(=O)CC(CC(=O)N[C@H](CS(=O)(=O)O)C(=O)N[C@H](CS(=O)(=O)O)C(=O)N[C@H](CS(=O)(=O)O)C(=O)O)C(=O)NCCCCCCCCNC(=O)O[C@@H]([C@@H]2OC(C(=O)O)=C[C@H](N=C(N)N)[C@H]2NC(C)=O)[C@H](O)CO)[C@H](O)CO)OC(C(=O)O)=C[C@@H]1N=C(N)N (stereo partly drawn) [MD343, PK2 TCA(Z0)2-[D-Cya]3-OH]
Mice survivors/total [1]: 5/5 and 4/5

CC(=O)N[C@H]1[C@H]([C@H](OC(=O)NCCCCCCNC(=O)c2cc(C(=O)O)c(C(=O)NCCCCCCNC(=O)O[C@@H]([C@@H]3OC(C(=O)O)=C[C@H](N=C(N)N)[C@H]3NC(C)=O)[C@H](O)CO)cc2C(=O)O)[C@H](O)CO)OC(C(=O)O)=C[C@@H]1N=C(N)N [MD015, PK1 PYR(Z)2]
EC50 Duck/MN/1525/81 (Duck/MN/1525/81): 0.4 ng/mL (≈ 0.343 nM)

CC(=O)N[C@H]1[C@H]([C@H](OC(=O)NCCCCCCCCCNC(=O)c2cc(C(=O)NCCCCCCCCCNC(=O)O[C@@H]([C@@H]3OC(C(=O)O)=C[C@H](NC(=N)N)[C@H]3NC(C)=O)[C@H](O)CO)c(C(=O)N[C@H](CC(=O)NCS(=O)(=O)O)C(=O)NCS(=O)(=O)O)cc2C(=O)N[C@H](CC(=O)NCS(=O)(=O)O)C(=O)NCS(=O)(=O)O)[C@H](O)CO)OC(C(=O)O)=C[C@@H]1NC(=N)N [MD185, PK2PYR(Zn)2[(D-Asp)(NHCH2SO3)2]2]
EC50 (A/Mississippi/03/01 WT): 0.89 nM
Mice survivors/total (A/Duck/MN/1525/81 (H5N1)): 10/10 and 8/10 and 7/10
EC50 (A/Townsville/74/2011): 0.74 nM
EC50 (B/Townsville/2/2011): 1.7 nM
Survivors/Total [2]: 5/5
EC50 (A/Perth/261/2009): 0.49 nM
EC50 (A/Solomon Island/3/06): 0.29 nM
EC50 (A/Victoria/170/2012): 2.7 nM
Mean day of death [1]: 7.3 days and 7.25 days and 7.5 days
Mice survivors/total [1]: 5/5 and 4/5
EC50 (A/Sydney/5/97): 2.7 nM
Mice survivors/total (B/Sichuan/379/99 (FluB)): 9/10 and 8/10
Mice survivors/total [3]: 10/10 and 9/10 and 4/10
EC50 (A/Victoria/503/06): 6.5 nM
EC50 (A/Sydney/250/99): 0.29 nM

CC(=O)N[C@H]1[C@H]([C@H](O)[C@H](O)CO)OC(C(=O)O)=C[C@@H]1NC(=N)N [Zanarnivir]
Survivors/Total [1]: 0/5

CC(=O)N[C@H]1[C@H]([C@H](OC(=O)NCCCCNC(=O)c2cc(C(=O)NCCCCNC(=O)O[C@@H]([C@@H]3OC(C(=O)O)=C[C@H](N=C(N)N)[C@H]3NC(C)=O)[C@H](O)CO)c(C(=O)N[C@H](CC(=O)NCS(=O)(=O)O)C(=O)NCS(=O)(=O)O)cc2C(=O)N[C@H](CC(=O)NCS(=O)(=O)O)C(=O)NCS(=O)(=O)O)[C@H](O)CO)OC(C(=O)O)=C[C@@H]1N=C(N)N [MD219, PK2 PYR(Zb)2[(D-Asp)(NHCH2SO3H)2]2]
EC50 Duck/MN/1525/81 (Duck/MN/1525/81): 0.5 ng/mL (≈ 0.292 nM)

CC(=O)N[C@H]1[C@H]([C@H](OC(=O)NCCCCCCCCNC(=O)[C@@H]2C[C@H](C(=O)NCCCCCCCCNC(=O)O[C@@H]([C@@H]3OC(C(=O)O)=C[C@H](N=C(N)N)[C@H]3NC(C)=O)[C@H](O)CO)C[C@H](C(=O)N[C@@H](CC(=O)NCS(=O)(=O)O)C(=O)NCS(=O)(=O)O)C2)[C@H](O)CO)OC(C(=O)O)=C[C@@H]1N=C(N)N [MD154, CHTCA(Z0)2-L-Asp(NHCH2SO3H)2]
Mice survivors/total (A/Duck/MN/1525/81 (H5N1)): 10/10 and 9/10 and 6/10
EC50 Duck/MN/1525/81 (Duck/MN/1525/81): <0.13 ng/mL
Mice survivors/total (B/Sichuan/379/99 (FluB)): 10/10 and 9/10
Mice survivors/total [3]: 10/10 and 4/10

CC(=O)N[C@H]1[C@H]([C@H](OC(=O)NCCCCNC(=O)[C@@H]2C[C@H](C(=O)NCCCCNC(=O)O[C@@H]([C@@H]3OC(C(=O)O)=C[C@H](N=C(N)N)[C@H]3NC(C)=O)[C@H](O)CO)C[C@H](C(=O)N[C@@H](CC(=O)O)C(=O)O)C2)[C@H](O)CO)OC(C(=O)O)=C[C@@H]1N=C(N)N [MD206, CHTCA(Zb)2-L-Asp]
EC50 Duck/MN/1525/81 (Duck/MN/1525/81): 0.7 ng/mL (≈ 0.589 nM)

CC(=O)N[C@H]1[C@H]([C@H](OC(=O)NCCCCCCNC(=O)c2cc(C(=O)NCCCCCCNC(=O)O[C@@H]([C@@H]3OC(C(=O)O)=C[C@H](N=C(N)N)[C@H]3NC(C)=O)[C@H](O)CO)c(C(=O)O)cc2C(=O)O)[C@H](O)CO)OC(C(=O)O)=C[C@@H]1N=C(N)N [MD016, PK2 PYR(Z)2]
EC50 Duck/MN/1525/81 (Duck/MN/1525/81): 0.6 ng/mL (≈ 0.514 nM)
